Pooled drug test results. Numbers come from NIAID ChemDB, via PubChem.

Shared fields: whole-cell or culture tests; species: Aspergillus fumigatus; endpoint: MIC

Rows are shuffled and stem from different studies.

| structure | strain or isolate | result |
|---|---|---|
| COc1ccc(Oc2c(C3C(C#N)=C(N)OC4=C3C(=O)CCC4)c(C)nn2-c2ccc(C)cc2)cc1 | MTCC 3008 | 500 µg/mL |
| O=C1/C(=C\c2ccccc2)CN(C(=O)c2ccc(/C=C/C(=O)c3ccc(Cl)c(Cl)c3)cc2)C/C1=C/c1ccccc1 | 3 clinical isolates | >32 µg/mL |
| COc1ccc(/C=C/C(=O)c2ccc(OC)c(OC)c2)cc1OC | ATCC 26934 | >50 µg/mL |
| COc1ccc(C(=O)/C=C/c2ccc(C(=O)N3C/C(=C/c4ccccc4)C(=O)/C(=C\c4ccccc4)C3)cc2)cc1OC | 3 clinical isolates | >32 µg/mL |
| COc1cc(/C=C/C(=O)c2cc(OC)c(OC)c(OC)c2)cc(OC)c1OC | ATCC 26934 | >50 µg/mL |
| Cc1ccc(-n2nc(C)c(C3C(C#N)=C(N)OC4=C3C(=O)CCC4)c2Oc2ccc(Cl)cc2)cc1 | MTCC 3008 | 250 µg/mL |
| Cc1ccc(C(=O)/C=C/c2ccc(C(=O)N3C/C(=C/c4ccccc4)C(=O)/C(=C\c4ccccc4)C3)cc2)cc1C | 3 clinical isolates | >32 µg/mL |
| Cc1nn(-c2ccccc2)c(Oc2ccc(Cl)cc2)c1C1C(C#N)=C(N)OC2=C1C(=O)CCC2 | MTCC 3008 | 250 µg/mL |
| CCCCCCCCOc1ccc(-c2ccc(C(=O)NC3CC(NCCN)CNC(=O)[C@@H]4[C@@H](O)[C@@H](C)CN4C(=O)[C@@H](CO)NC(=O)[C@H]([C@H](O)Cc4ccccc4)NC(=O)[C@@H]4C[C@@H](O)CN4C(=O)[C@H]([C@@H](C)O)NC3=O)cc2)cc1 | 50 isolates | 0.25 µg/mL |
| OC(Cn1cncn1)(Cn1cncn1)c1ccc(F)cc1F | NFI 0159 | >128 µg/mL |
| O=C1/C(=C/c2ccccc2)CN(C(=O)c2ccc(/C=C/C(=O)c3ccc(Cl)cc3)cc2)C/C1=C\c1ccccc1 | 3 clinical isolates | >32 µg/mL |
| CCCCCOc1ccc(-c2cc(-c3ccc(C(=O)N[C@H]4C[C@@H](O)[C@@H](O)NC(=O)[C@@H]5[C@@H](O)[C@@H](C)CN5C(=O)[C@H]([C@H](O)CC(N)=O)NC(=O)[C@H]([C@H](O)[C@@H](O)c5ccc(O)c(OS(=O)(=O)O)c5)NC(=O)[C@@H]5C[C@@H](O)CN5C(=O)[C@H]([C@@H](C)O)NC4=O)cc3)no2)cc1 | TIMM0063 | ≤0.0039 µg/mL |
| O=C1/C(=C/c2ccccc2)CN(C(=O)/C=C/c2ccc(Cl)c(Cl)c2)C/C1=C\c1ccccc1 | 3 clinical isolates | >32 µg/mL |
| Cc1ccc(Oc2c(C3C(C#N)=C(N)OC4=C3C(=O)CCC4)c(C)nn2-c2ccc(C)cc2)cc1 | MTCC 3008 | 500 µg/mL |
| COc1cc2cc(/C=C/C(=O)c3ccc(Cl)cc3)c(Cl)nc2cc1OC | ATCC 26934 | >50 µg/mL |
| O=C1/C(=C/c2ccccc2)CN(C(=O)/C=C/c2ccc([N+](=O)[O-])cc2)C/C1=C\c1ccccc1 | 3 clinical isolates | >32 µg/mL |
| COc1ccc(/C=C/C(=O)c2ccccc2)cc1OC | ATCC 26934 | >50 µg/mL |
| C[C@H]1[C@H](O)[C@@H](C)/C=C/C=C/C=C/C=C/C=C/C=C/C=C/[C@H](O[C@@H]2O[C@H](C)[C@@H](O)[C@H](N)[C@@H]2O)C[C@@H]2O[C@](O)(C[C@@H](O)C[C@@H](O)CC[C@H](O)[C@@H](O)C[C@@H](O)CC(=O)O[C@H]1C)C[C@H](O)[C@H]2C(=O)O | NFI 0159 | 1 µg/mL |